Pooled drug test results. Numbers come from NIAID ChemDB, via PubChem.

Shared fields: target-level tests; organism: HIV-1; target: Reverse transcriptase; measure: IC50

ICn is the concentration giving n% inhibition. Neighbouring rows are from separate reports. Blank or dashed fields: not listed here. a–b is a range or a potency band.

SMILES,strain or isolate,mutations,method,result
CN1C(=O)c2cc(CCc3ccncc3)cnc2N(C2CC2)c2nc(Cl)ccc21,WT,-,nucleotide incorporation / radiometric,<1 µM
CCc1cc(NCc2nc3c(C)ccc(C)c3o2)c(=O)[nH]c1C,-,-,nucleotide incorporation,0.047 µM
O=C(O)CNC(=O)c1ccc(NC(=O)CSc2nnc(Br)n2-c2ccc(C3CC3)c3ccccc23)c(Cl)c1,-,RT-Y188L,nucleotide incorporation / radiometric,0.05–0.1 µM
CCN1c2ncc(CCOc3ccc(-c4ccc(CC(=O)O)cc4Cl)cc3C)cc2C(=O)N(C)c2cccnc21,IIIB,-,nucleotide incorporation / radiometric,<0.05 µM
CN(C)CC(=O)NC(C)(C)C#Cc1ccc(NC(=O)CSc2nnnn2-c2ccc(C3CC3)cc2Cl)c(Cl)c1F,WT,-,PicoGreen / fluorescence,<1 µM
O=C(CSc1nnc(Br)n1-c1cccc2c(OCC3CC3)cccc12)Nc1ccc(C(=O)O)cc1Cl,-,RT-Y188L,nucleotide incorporation / radiometric,>0.1 µM
CC(C)(C#Cc1ccc(NC(=O)CSc2nnnn2-c2cc(C(C)(C)C)cc(Br)c2Cl)c(Cl)c1)NC(=O)CN=c1ccn(O)cc1,WT,-,PicoGreen / fluorescence,<1 µM
CCN1c2ncc(CC(O)c3ccncc3)cc2C(=O)N(C)c2ccc(Cl)nc21,-,RT-Y181C,nucleotide incorporation / radiometric,<1 µM
CCN1c2ncc(CCOc3ccc(C(=O)O)c4c3CCN(C(C)=O)C4)cc2C(=O)N(C)c2cccnc21,-,RT-K103N Y181C,nucleotide incorporation / radiometric,0.1–1 µM
CCN1c2ncc(CCOc3ccc(C(=O)NC(C)(C)C(=O)O)cc3C)cc2C(=O)N(C)c2cccnc21,IIIB,RT-K103N Y181C,nucleotide incorporation / radiometric,0.05–0.1 µM
CC(CC(=O)O)NC(=O)COC(C)(C)C#Cc1ccc(NC(=O)CSc2nnnn2-c2ccc(C(C)(C)C)cc2Cl)c(Cl)c1,-,RT-K103 Y181C,PicoGreen / fluorescence,<1 µM
CCc1ccc(-n2c(CF)nnc2SCC(=O)Nc2ccc(C(=O)O)cc2Cl)c2ccccc12,-,RT-Y188L,nucleotide incorporation / radiometric,>0.1 µM
CCN1c2ncc(CCc3ccccc3N)cc2C(=O)N(C)c2ccc(Cl)nc21,WT,-,nucleotide incorporation / radiometric,<1 µM
Cc1ccc(-n2c(C)nnc2SCC(=O)Nc2ccc(S(N)(=O)=O)cc2Cl)c2c1CCCC2,-,RT-Y188L,nucleotide incorporation / radiometric,>0.1 µM
CC(C)(C)c1ccc(-n2nccc2SCC(=O)Nc2ccc(-c3ccc(CC(=O)O)cc3)cc2Cl)c(Cl)c1,-,RT-K103 Y181C,PicoGreen / fluorescence,<1 µM
NS(=O)(=O)c1ccc(NC(=O)CSc2nnc(Br)n2-c2ccc(C3CC3)cc2Cl)c(Cl)c1,-,RT-Y188L,nucleotide incorporation / radiometric,>0.1 µM
CN1CCN(CC#Cc2ccc(NC(=O)CSc3nnnn3-c3ccc(C(C)(C)C)cc3Cl)c(Cl)c2)CC1,WT,-,PicoGreen / fluorescence,<1 µM
CCN1c2ncc(CCOc3ccc(CC(=O)O)c4ccccc34)cc2C(=O)Nc2c(C)ccnc21,-,RT-K103N Y181C,nucleotide incorporation / radiometric,>1 µM
NS(=O)(=O)c1ccc(NC(=O)CSc2nnc(Br)n2-c2ccc(C3CCC3)c3ccccc23)c(Cl)c1,-,RT-Y181C,nucleotide incorporation / radiometric,<0.05 µM
CCN1c2ncc(CCOc3ccc(-c4cccnc4C)cc3C)cc2C(=O)N(C)c2cccnc21,IIIB,-,nucleotide incorporation / radiometric,<0.05 µM
COc1cccc2c(-n3c(Br)nnc3SCC(=O)Nc3ccc(C(=O)O)cc3Cl)cccc12,-,RT-Y181C,nucleotide incorporation / radiometric,0.05–0.1 µM
Cc1cc(C#CC(C)(C)C(=O)O)ccc1NC(=O)CSc1nnnn1-c1ccc(C(C)(C)C)cc1Cl,WT,-,PicoGreen / fluorescence,<1 µM
O=C(O)CCNC(=O)c1ccc(NC(=O)CSc2nnc(Br)n2-c2ccc(C3CC3)c3ccccc23)c(Cl)c1,-,RT-Y188L,nucleotide incorporation / radiometric,>0.1 µM
CC(C)(C#Cc1ccc(NC(=O)CSc2nnnn2-c2ccc(C3CC3)cc2Cl)c(Cl)c1F)OCCN1CCC(F)(F)C1,WT,-,PicoGreen / fluorescence,<1 µM
CC(C)OC(=O)CNC(=O)c1ccc(NC(=O)CSc2nnc(Br)n2-c2ccc(C3CC3)c3ccccc23)c(Cl)c1,-,RT-Y188L,nucleotide incorporation / radiometric,<0.05 µM
CC(C)(C#Cc1ccc(NC(=O)CSc2nnnn2-c2cc(C3CC3)ccc2Cl)c(Cl)c1)C(=O)O,-,RT-K103 Y181C,PicoGreen / fluorescence,<1 µM
FC(F)(F)c1nnc2c3ccccc3c(N3CCc4ccccc4C3)nn12,98US_MSC5016,-,RT activity / fluorescence,0.85 µM
Cc1ccc(-n2nnnc2SCC(=O)Nc2ccc(-c3ccc(C(=O)O)cc3)cc2Cl)c(Cl)c1,-,RT-K103 Y181C,PicoGreen / fluorescence,<1 µM
CCN1c2ncc(CCOc3cccc4c3ccc[n+]4[O-])cc2C(=O)N(C)c2ccc(Cl)nc21,-,RT-K103N V108I,nucleotide incorporation / radiometric,0.064 µM
O=C(CSc1nnnn1-c1ccc(C(F)(F)F)cc1Cl)Nc1ccc(-c2ccc(OCCn3ccnc3)cc2)cc1Cl,WT,-,PicoGreen / fluorescence,<1 µM
Cc1ccc(-n2c(SCC(=O)Nc3ccc(C(=O)O)cc3Cl)nnc2C(F)F)c2c1CCCC2,-,RT-Y188L,nucleotide incorporation / radiometric,>0.1 µM
COc1ccc2c(c1)CCN(c1nn3c(C)nnc3c3ccccc13)C2,98US_MSC5016,-,RT activity / fluorescence,4.26 µM
CCc1ccc(-n2c(Br)nnc2SCC(=O)Nc2ccc(C(=O)NCC(O)CO)cc2Cl)c2ccccc12,-,RT-Y181C,nucleotide incorporation / radiometric,<0.05 µM
CCN1c2ncc(CCOc3ccc(CC(=O)NN)c4ccccc34)cc2C(=O)N(C)c2ccc(Cl)nc21,-,RT-V106A,nucleotide incorporation / radiometric,0.1–1 µM
CC(C)(C#Cc1ccc(NC(=O)CSc2nnnn2-c2ccc(C3CC3)cc2Cl)c(Cl)c1)NC(=O)CNc1ccncc1,WT,-,PicoGreen / fluorescence,<1 µM
COc1ccc2c(c1)CN(c1nn3c(C)nnc3c3ccccc13)CC2,KER2008,-,RT activity / fluorescence,5.26 µM
CNC(=O)OCC(C)(C)C#Cc1ccc(NC(=O)CSc2nnnn2-c2ccc(C(C)(C)C)cc2Cl)c(Cl)c1,WT,-,PicoGreen / fluorescence,<1 µM
Cc1cc(S(N)(=O)=O)ccc1NC(=O)CSc1nnc(C(F)F)n1-c1ccc(C)c2c1CCCC2,-,RT-Y188L,nucleotide incorporation / radiometric,>0.1 µM
CCN1c2ncc(CCOc3ccc(-c4ccc(C(=O)O)nc4)cc3C)cc2C(=O)N(C)c2cccnc21,IIIB,RT-K103N Y181C,nucleotide incorporation / radiometric,<0.05 µM
COc1ccc(-c2ccc(NC(=O)CSc3nnnn3-c3ccc(C)cc3Cl)c(Cl)c2)cc1,-,RT-K103 Y181C,PicoGreen / fluorescence,<1 µM
Cc1nnc2c3ccccc3c(N3Cc4ccccc4C(C)(C)C3)nn12,KER2008,-,RT activity / fluorescence,24.5 µM
CCN1c2ncc(CCc3ccc(N(C)S(C)(=O)=O)cc3)cc2C(=O)N(C)c2ccc(Cl)nc21,WT,-,nucleotide incorporation / radiometric,~1 µM
CC(C)(C)c1ccc(-n2nnnc2SCC(=O)Nc2ccc(S(=O)(=O)NCc3ccccc3)cc2Cl)c(Cl)c1,-,RT-K103 Y181C,PicoGreen / fluorescence,<1 µM
NS(=O)(=O)c1ccc(NC(=O)CSc2nnc(C(F)F)n2-c2ccc(C3CC3)c3ccccc23)c(Cl)c1,-,RT-Y188L,nucleotide incorporation / radiometric,>0.1 µM
c1ccc2c(c1)CCN(c1nn3c(C4CC4)nnc3c3ccccc13)C2,KER2008,-,RT activity / fluorescence,0.93 µM
CCN1c2ncc(CCOc3ccc(/C=C(\C)C(=O)O)c4ccccc34)cc2C(=O)N(C)c2cccnc21,-,RT-K103N Y181C,nucleotide incorporation / radiometric,0.1–1 µM
CC(C)(C)c1ccc(-n2nnnc2SCC(=O)Nc2ccc(C(=O)Nc3cccc4cccnc34)cc2Cl)c(Cl)c1,-,RT-K103 Y181C,PicoGreen / fluorescence,<1 µM
CCc1ccc(-n2c(Br)nnc2SCC(=O)Nc2ccc(C(=O)NCC(=O)OC)cc2Cl)c2ccccc12,-,RT-Y188L,nucleotide incorporation / radiometric,0.05–0.1 µM
COc1cc2c(cc1[N+](=O)[O-])CN(c1nn3c(C4CC4)nnc3c3ccccc13)CC2,98US_MSC5016,-,RT activity / fluorescence,39.2 µM
Cc1ccc(-n2nnnc2SCC(=O)Nc2ccc(-c3ccc(CC(=O)O)cc3)cc2Cl)c(Cl)c1,WT,-,PicoGreen / fluorescence,<1 µM
CCc1ccc(-n2c(SCC(=O)Nc3ccc(C(=O)O)cc3Cl)nnc2C(F)F)c2ccccc12,-,RT-Y181C,nucleotide incorporation / radiometric,<0.05 µM
O=C(CSc1nnnn1-c1ccc(C2CC2)cc1Cl)Nc1ccc(-c2ccc(OCCN3CCCCC3)cc2)c(F)c1Cl,-,RT-K103 Y181C,PicoGreen / fluorescence,<1 µM
Cc1cc(C)c2ccccc2c1-n1c(CF)nnc1SCC(=O)Nc1ccc(S(N)(=O)=O)cc1Cl,-,-,nucleotide incorporation / radiometric,<0.05 µM
CC(C)(C#Cc1ccc(NC(=O)CSc2nnnn2-c2cc(C3CC3)cc(C(F)(F)F)c2Cl)c(Cl)c1)C(=O)O,-,RT-K103 Y181C,PicoGreen / fluorescence,<1 µM
CCc1ccc(-n2c(CF)nnc2SCC(=O)Nc2ccc(S(N)(=O)=O)cc2Cl)c2c1CCCC2,-,RT-Y188L,nucleotide incorporation / radiometric,>0.1 µM
CC(C)(C#Cc1ccc(NC(=O)CSc2nnnn2-c2ccc(C3CC3)cc2Cl)c(Cl)c1)NC(=O)c1ccncc1,WT,-,PicoGreen / fluorescence,<1 µM
Cc1ccc(-n2c(SCC(=O)Nc3ccc(S(=O)(=O)NC(C(=O)O)C(C)C)cc3Cl)nnc2C(F)F)c2c1CCCC2,-,RT-Y188L,nucleotide incorporation / radiometric,>0.1 µM

The first 9 rows once more:

SMILES,strain or isolate,mutations,method,result
CN1C(=O)c2cc(CCc3ccncc3)cnc2N(C2CC2)c2nc(Cl)ccc21,WT,-,nucleotide incorporation / radiometric,<1 µM
CCc1cc(NCc2nc3c(C)ccc(C)c3o2)c(=O)[nH]c1C,-,-,nucleotide incorporation,0.047 µM
O=C(O)CNC(=O)c1ccc(NC(=O)CSc2nnc(Br)n2-c2ccc(C3CC3)c3ccccc23)c(Cl)c1,-,RT-Y188L,nucleotide incorporation / radiometric,0.05–0.1 µM
CCN1c2ncc(CCOc3ccc(-c4ccc(CC(=O)O)cc4Cl)cc3C)cc2C(=O)N(C)c2cccnc21,IIIB,-,nucleotide incorporation / radiometric,<0.05 µM
CN(C)CC(=O)NC(C)(C)C#Cc1ccc(NC(=O)CSc2nnnn2-c2ccc(C3CC3)cc2Cl)c(Cl)c1F,WT,-,PicoGreen / fluorescence,<1 µM
O=C(CSc1nnc(Br)n1-c1cccc2c(OCC3CC3)cccc12)Nc1ccc(C(=O)O)cc1Cl,-,RT-Y188L,nucleotide incorporation / radiometric,>0.1 µM
CC(C)(C#Cc1ccc(NC(=O)CSc2nnnn2-c2cc(C(C)(C)C)cc(Br)c2Cl)c(Cl)c1)NC(=O)CN=c1ccn(O)cc1,WT,-,PicoGreen / fluorescence,<1 µM
CCN1c2ncc(CC(O)c3ccncc3)cc2C(=O)N(C)c2ccc(Cl)nc21,-,RT-Y181C,nucleotide incorporation / radiometric,<1 µM
CCN1c2ncc(CCOc3ccc(C(=O)O)c4c3CCN(C(C)=O)C4)cc2C(=O)N(C)c2cccnc21,-,RT-K103N Y181C,nucleotide incorporation / radiometric,0.1–1 µM